Experimental findings from patent US20260184766A1, “FUSION POLYPEPTIDES AND BINDING PEPTIDES AND METHODS FOR PRODUCING AND USING SAME” (APPLIED BIOMEDICAL SCIENCE INSTITUTE, published 2026) are described below.

This experiment deals with SARS-CoV-2 (antigen of the ELISA of FIG. 5E). Put plainly: ELISA on SARS-CoV-2 antigen (spike or RBD not stated), OD 450. A general note: In an ELISA, binding on a coated surface is turned into a signal by an enzyme label.

B1: R4C1 chimeric bovine-human IgG1 (ultralong CDR3) (antibody)
VH: QVQLRESGPSLVKPSQTLSLTCTASGFSLSDKAVGWVRQAPGKPLEWLGSIDTAENTGYNPGLKSRLSITKDNSKSQVSLSVSSVTTEDSATYYCATVHQKTRKEKNCPDGYIYSSNTASGYDCGVWICRRVGSAFCSRTGDYTSPSEFDIYEFYVEGWGQGLLVTVSS
VL: QAVLNQPSSVSGSLGQRVSITCSGSSSNVGNGYVSWYQLIPGSAPRTLIYGDTSRASGVPDRFSGSRSGNTATLTISSLQAEDEADYFCASAEDSSSNAVFGSGTTLTVL
notes: also called R4C1 (IgG)
On to B1, for which the “EC50 (read off the curve)” value is approximately 30 pM.

Broadly, the EC50 (read off the curve) is the concentration giving half of the maximal effect.
